Anti-infective test results gathered from many reports (values: NIAID ChemDB through PubChem).

Common to all: tests in culture; organism: HIV-1; method: cytopathic effect / MTT; endpoint: EC50

Rows are shuffled and stem from different studies. ECn: concentration that inhibits the pathogen or its effect by n%.

O=C1c2ccccc2C(=O)N1CCOC(=S)N(C(=O)c1ccccc1)c1ccc(Cl)cc1 ; strain or isolate: A17 ; cell line: MT-4 ; changes: RT-K103N Y181C ; result: >100 µM
CC(C)(C)C(=O)OCOP(=O)(COCCn1cnc2c(N)ncnc21)OCOC(=O)C(C)(C)C ; cell line: CEM ; result: 0.18 µM
C1CNCCNCCCN(CCCN2CCCNCCNCCCNCC2)CCNC1 ; strain or isolate: IIIB ; cell line: MT-4 ; result: 0.11 µg/mL
Cc1cn([C@H]2C=C[C@@H](CO)O2)c(=O)[nH]c1=O ; strain or isolate: IIIB ; cell line: MT-2 ; result: 6 µM
CNC(C)[C@H]1O[C@H](O[C@@H]2[C@@H](O)[C@H](O[C@@H]3OC[C@@](C)(O)[C@@H](NC)[C@@H]3O)[C@@H](NC(=O)[C@@H](N)CCCN=C(N)N)C[C@H]2NC(=O)[C@@H](N)CCCN=C(N)N)[C@H](NC(=O)[C@@H](N)CCCN=C(N)N)[C@@H](O)[C@@H]1O ; strain or isolate: RF ; cell line: MT-4 ; result: 30 µM
O=C1c2ccncc2C(=O)N1CCNC(=S)Nc1ccc(Br)cn1 ; strain or isolate: IIIB ; cell line: C8166 ; result: >2 µM
c1cc(CN2CCCNCCNCCCNCC2)ccc1CN1CCCNCCNCCCNCC1 ; strain or isolate: NL4-3 ; cell line: MT-4 ; changes: AMD3100-resistant ; result: 0.1 µg/mL
CCCCCCCCCC(=O)O[C@@]12[C@H](OC(C)=O)[C@@H](C)[C@@]3(O)[C@@H](C=C(CO)C[C@]4(O)C(=O)C(C)=C[C@@H]34)[C@@H]1C2(C)C ; strain or isolate: IIIB ; cell line: MT-4 + mouse plasma + MT-4 ; result: 0.0707 µg/mL
S=c1[nH]c2cc(Cl)cc3c2n1CCN1CCCCC31 ; strain or isolate: IIIB ; cell line: MT-4 ; result: >200 µM
Cc1cn([C@H]2C[C@H](N=[N+]=[N-])[C@@H](CO)O2)c(=O)[nH]c1=O ; cell line: MT-4 ; result: 0.25 µM
Fc1cccc(F)c1Cn1c(-c2c(F)cccc2F)nc2c(Br)cccc21 ; cell line: MT-4 ; changes: RT-Y181C ; result: 8.4 µM
O=C1c2ccccc2C(=O)N1CCOC(=S)N(C(=O)c1ccccc1)c1ccccc1 ; strain or isolate: N119 nevirapine-resistant (RT Y181C) ; cell line: MT-4 ; changes: RT-Y181C ; result: >100 µM
CCCCCCCCCC(=O)O[C@@]12[C@H](OCC)[C@@H](C)[C@@]3(O)[C@@H](C=C(CO)C[C@]4(O)C(=O)C(C)=C[C@@H]34)[C@@H]1C2(C)C ; strain or isolate: IIIB ; cell line: MT-4 ; result: 0.1957 µg/mL
NOCc1ccccc1Cl ; strain or isolate: IIIB ; cell line: MT-4 ; result: 13.8 µg/mL
Nc1nc(Cl)nc2c1ncn2[C@@H]1CC[C@H](CO)O1 ; strain or isolate: IIIB ; cell line: MT-2 ; result: >100 µM
Cc1cn([C@H]2C[C@H](N=[N+]=[N-])[C@@H](CO)O2)c(=O)[nH]c1=O ; strain or isolate: IIIB ; cell line: MT-2 ; result: 0.09 µM
O=c1cnc2ccccc2n1CCNC(=S)Nc1ccc(Br)cn1 ; strain or isolate: IIIB ; cell line: C8166 ; result: >2 µM
Nc1ccn([C@H]2CC[C@@H](CO)O2)c(=O)n1 ; strain or isolate: IIIB ; cell line: MT-2 ; result: 0.6 µM
CCc1c(Sc2cccc3ccccc23)nc(SCC(=O)c2ccc(Cl)cc2)[nH]c1=O ; strain or isolate: IIIB ; cell line: MT-4 ; result: 5.94 µM
O=c1c2cccn2c2ccccc2n1CCNC(=S)Nc1ccc(Cl)cn1 ; strain or isolate: IIIB ; cell line: C8166 ; result: 1.2 µM
CC(=O)Nc1cccc2c1nc(-c1c(F)cccc1F)n2Cc1c(F)cccc1F ; cell line: MT-4 ; changes: RT-K103N ; result: >20 µM
FC(F)(F)c1ccnc2c1NC(=NC1CC1)c1cccnc1N2C1CC1 ; strain or isolate: IIIB ; cell line: MT-4 ; result: >200 µM
c1cc(CN2CCCNCCNCCCNCC2)ccc1CN1CCCNCCNCCCNCC1 ; strain or isolate: IIIB ; cell line: MT-4 ; result: 0.005 µg/mL
S=C(NCCc1ccccn1)Nc1ccc(Br)cn1 ; strain or isolate: A17 ; cell line: MT-4 ; changes: RT-K103N Y181C ; result: >100 µM
NC(N)=NCCC[C@H](N)C(=O)NC[C@@H]1OC(O[C@H]2[C@@H](O)[C@H](O[C@@H]3[C@@H](O)[C@H](NC(=O)[C@@H](N)CCCN=C(N)N)C[C@H](NC(=O)[C@@H](N)CCCN=C(N)N)[C@H]3O[C@H]3O[C@H](CNC(=O)[C@@H](N)CCCN=C(N)N)[C@@H](O)[C@H](O)[C@H]3NC(=O)[C@@H](N)CCCN=C(N)N)O[C@@H]2CO)[C@H](NC(=O)[C@@H](N)CCCN=C(N)N)[C@@H](O)[C@@H]1O ; strain or isolate: RF ; cell line: MT-4 ; result: 1.4 µM
CN(C)c1cccc2c1nc(-c1c(F)cccc1F)n2Cc1c(F)cccc1F ; cell line: MT-4 ; changes: RT-M184I ; result: 0.16 µM
Nc1nc2ncn([C@H]3CC[C@H](CO)O3)c2c(=O)[nH]1 ; strain or isolate: IIIB ; cell line: MT-2 ; result: >100 µM
CCn1cc(C(=O)O)c(=O)c2cc(F)c(N3CCN(c4ncccn4)CC3)c(OC(F)F)c21 ; strain or isolate: IIIB ; cell line: MOLT-4 ; result: 0.21 µM
CCc1c(Sc2cccc3ccccc23)nc(SCC(=O)c2ccc(F)cc2F)[nH]c1=O ; strain or isolate: IIIB ; cell line: MT-4 ; result: 0.38 µM
O=c1c2cccn2c2cccc(F)c2n1CCNC(=S)Nc1ccc(Br)cn1 ; strain or isolate: IIIB ; cell line: C8166 ; result: 0.025 µM
CCCCCCCCCC(=O)O[C@@]12[C@H](OCOC)[C@@H](C)[C@@]3(O)[C@@H](C=C(CO)C[C@]4(O)C(=O)C(C)=C[C@@H]34)[C@@H]1C2(C)C ; strain or isolate: IIIB ; cell line: MT-4 + mouse plasma + MT-4 ; result: <0.1 µg/mL
O=C(/C=C/c1ccc(O)c(O)c1)c1ccc(O)cc1O ; cell line: MT-4 ; result: >5.3 µM
CC(C)CN(C[C@@H](O)[C@H](Cc1ccccc1)NC(=O)O[C@H]1CCOC1)S(=O)(=O)c1ccc(N)cc1 ; strain or isolate: LAI ; cell line: MT-4 ; result: ~0.034 µM
COc1ccc(/C=C/C(=O)/C=C(O)/C=C/c2ccc(OC)c(OC)c2)cc1OC ; cell line: MT-4 ; result: >4.1 µM
CC(C)(C)NC(=O)N(Cc1ccncc1)C[C@@H](O)[C@H](Cc1ccccc1)NC(=O)[C@H](CC(N)=O)NC(=O)c1ccc2ccccc2n1 ; strain or isolate: IIIB ; cell line: CEM ; result: 0.03 µM
Nc1cccc2c1nc(-c1c(F)cccc1F)n2Cc1c(F)cccc1F ; cell line: MT-4 ; changes: RT-V179D ; result: 0.3 µM
Nc1ncnc2c1ncn2[C@H]1CC[C@H](CO)S1 ; strain or isolate: IIIB ; cell line: MT-2 ; result: >100 µM
Cc1ccnc2c1NC(=O)c1cccnc1N2C1CC1 ; cell line: MT-4 ; changes: RT-K103N Y181C ; result: >30 µM
COc1cc(/C=C2\CCC/C(=C\c3ccc(O)c(OC)c3)C2=O)ccc1O ; cell line: MT-4 ; result: >2.4 µM
CC(=O)Oc1ccc(/C=C/C(=O)O[C@@H](C(=O)O)[C@@H](OC(=O)/C=C/c2ccc(OC(C)=O)c(OC(C)=O)c2)C(=O)O)cc1OC(C)=O ; strain or isolate: NL4-3 ; cell line: MT-4 ; changes: AMD2763-resistant ; result: >74 µM
COc1ccccc1N1CCN(c2c(F)cc3c(=O)c(C(=O)O)cn(C4CC4)c3c2OC(F)F)CC1 ; strain or isolate: IIIB ; cell line: MOLT-4 ; result: 0.091 µM
O=c1c2cccn2c2cc(Cl)c(Cl)cc2n1CCNC(=S)Nc1ccc(Br)cn1 ; strain or isolate: IIIB ; cell line: CEM + CEM-SS ; result: 3.7 µM
NOCc1c(F)cccc1Cl ; strain or isolate: MN ; cell line: MT-4 ; result: 2.9 µg/mL
CCCCCCCCCC(=O)O[C@@]12[C@H](OC(OC)OCC)[C@@H](C)[C@@]3(O)[C@@H](C=C(CO)C[C@]4(O)C(=O)C(C)=C[C@@H]34)[C@@H]1C2(C)C ; strain or isolate: IIIB ; cell line: MT-4 ; result: 0.00372 µg/mL
CCn1cc(C(=O)O)c(=O)c2cc(F)c(N3CCN(c4ccccc4OC)CC3)c(OC(F)F)c21 ; strain or isolate: HE ; cell line: MT-4 ; result: 0.48 µM
NOCc1ccccc1F ; strain or isolate: IIIB ; cell line: MT-4 ; result: 8.15 µg/mL
O=C1c2ccccc2C(=O)N1CCOC(=S)N(C(=O)c1cccs1)c1ccc([N+](=O)[O-])cc1 ; strain or isolate: N119 nevirapine-resistant (RT Y181C) ; cell line: MT-4 ; changes: RT-Y181C ; result: 1.2 µM
Nc1ccn([C@@H]2CO[C@H](CO)S2)c(=O)n1 ; strain or isolate: RF ; cell line: C8166 ; result: 28 µM
COc1ccc(/C=C/C(=O)/C=C/c2ccc(OC)c(OC)c2)cc1OC ; cell line: MT-4 ; result: >4.1 µM
Cc1cn([C@H]2C[C@H](N=[N+]=[N-])[C@@H](CO)O2)c(=O)[nH]c1=O ; strain or isolate: IIIB ; cell line: MT-4 ; result: 0.007 µM
CC(C)CN(C[C@@H](O)[C@H](Cc1ccccc1)NC(=O)[C@H](CC(N)=O)NC(=O)c1ccc2ccccc2n1)C(=O)NC(C)(C)C ; strain or isolate: IIIB ; cell line: CEM ; result: 0.021 µM
Cc1cc2c(cc1C)n1cccc1c(=O)n2CCNC(=S)Nc1ccc(Br)cn1 ; strain or isolate: IIIB ; cell line: C8166 ; result: >2 µM
O=C(O)/C=C(\CC(=O)O)C(=O)O ; strain or isolate: IIIB ; cell line: MT-4 ; result: >25 µM
CC[C@@]1(O)C(=O)OCc2c1cc1n(c2=O)Cc2cc3ccccc3nc2-1 ; cell line: MT-4 ; result: >0.01 µM
Nc1ncnc2c1ncn2[C@@H]1CC[C@H](CO)O1 ; strain or isolate: IIIB ; cell line: MT-2 ; result: >100 µM
O=C1/C(=C/c2ccc(O)c(O)c2)CSC/C1=C\c1ccc(O)c(O)c1 ; cell line: MT-4 ; result: >4 µM
Nc1ncnc2c1ncn2[C@@H]1CC[C@H](CO)S1 ; strain or isolate: IIIB ; cell line: MT-2 ; result: >100 µM

The last 8 rows once more:

{"smiles": "Cc1cn([C@H]2C[C@H](N=[N+]=[N-])[C@@H](CO)O2)c(=O)[nH]c1=O", "strain or isolate": "IIIB", "cell line": "MT-4", "result": "0.007 µM"}
{"smiles": "CC(C)CN(C[C@@H](O)[C@H](Cc1ccccc1)NC(=O)[C@H](CC(N)=O)NC(=O)c1ccc2ccccc2n1)C(=O)NC(C)(C)C", "strain or isolate": "IIIB", "cell line": "CEM", "result": "0.021 µM"}
{"smiles": "Cc1cc2c(cc1C)n1cccc1c(=O)n2CCNC(=S)Nc1ccc(Br)cn1", "strain or isolate": "IIIB", "cell line": "C8166", "result": ">2 µM"}
{"smiles": "O=C(O)/C=C(\\CC(=O)O)C(=O)O", "strain or isolate": "IIIB", "cell line": "MT-4", "result": ">25 µM"}
{"smiles": "CC[C@@]1(O)C(=O)OCc2c1cc1n(c2=O)Cc2cc3ccccc3nc2-1", "cell line": "MT-4", "result": ">0.01 µM"}
{"smiles": "Nc1ncnc2c1ncn2[C@@H]1CC[C@H](CO)O1", "strain or isolate": "IIIB", "cell line": "MT-2", "result": ">100 µM"}
{"smiles": "O=C1/C(=C/c2ccc(O)c(O)c2)CSC/C1=C\\c1ccc(O)c(O)c1", "cell line": "MT-4", "result": ">4 µM"}
{"smiles": "Nc1ncnc2c1ncn2[C@@H]1CC[C@H](CO)S1", "strain or isolate": "IIIB", "cell line": "MT-2", "result": ">100 µM"}